Anti-infective test results gathered from many reports (values: NIAID ChemDB through PubChem).

Common to all: whole-cell or culture tests; species: Herpes simplex virus 2; cells: VERO; measure: inhibition

Lines come from different laboratories, so protocols vary.

compound,strain or isolate,read by,tested at,result
CC(C)=CCCC(CO)C1CCC2C3CC=C4C[C@H](O)[C@@H](O)CC4(C)C3CCC12C,G,plaque count,40 µg/mL,67.8%
C/C=C/c1cn([C@@H]2O[C@H](CO)[C@@H](O)[C@@H]2O)c(=O)[nH]c1=O,72,plaque count,250 µM,0%
O=S(=O)(c1ccc(OCc2ccc(Cl)cc2)cc1)c1ccc(OCc2ccc(Cl)cc2)cc1,,plaque count,10 µM,>50%
CC/C=C/C/C=C/C/C=C/CCCCCCCC(=O)OCC(CO[C@@H]1O[C@H](CO)[C@@H](O)[C@H](O)[C@H]1O)OC(=O)CCCCCCC/C=C/C/C=C/C/C=C/CC,186,plaque count,50 µg/mL,97%
CC(=O)OC(C)C1=C(O)C2=C(C(=O)C1=O)[C@@]1(C)CCCC(C)(C)[C@@H]1C[C@H]2O,,plaque count,0.2 µg/mL,60%
CSC(=NCCc1ccccc1)Nc1ccc(Oc2ccc(/C=C(/NCCc3ccccc3)SC)cc2)cc1,,plaque count,1 µM,<50%
CCC(=O)C(CCCCCCOc1ccc(OC)cc1Cl)C(=O)CC,333,plaque count,3 µg/mL,6%
O=c1[nH]c(=O)n([C@H]2C[C@H](O)[C@@H](CO)O2)cc1I,K979,cytopathic effect,1 µg/mL,≥25%
CC(=O)O[C@H]1CC2=CCC3C(CCC4(C)C(C(CCC=C(C)C)COS(=O)(=O)O)CCC34)C2(C)C[C@@H]1OS(=O)(=O)O,G,plaque count,20 µg/mL,41%
CCc1cn([C@@H]2O[C@H](CO)[C@@H](O)[C@@H]2F)c(=O)[nH]c1=O,G,plaque count,0.91 µM,90%
CCCCCCCCCCCCCCCCCC(=O)OCC(CO[C@@H]1O[C@H](CO)[C@@H](O)[C@H](O)[C@H]1O)OC(=O)CCCCCCCCCCCCCCCCC,186,plaque count,50 µg/mL,inactive
C/C=C/c1cn([C@H]2C[C@H](O)[C@@H](CO)O2)c(=O)[nH]c1=O,91074,plaque count,100 µM,45%
CC(C)=CCC[C@@H](COS(=O)(=O)O)C1CCC2C3CC[C@H]4C[C@H](OS(=O)(=O)O)[C@@H](O)CC4(C)C3CCC21C,G,plaque count,80 µg/mL,100%
Nc1ncnc2c1ncn2[C@@H]1O[C@H](CO)[C@@H](O)[C@@H]1O,G,plaque count,25 µM,0%
CC/C=C/C/C=C/C/C=C/CCCCCCCC(=O)OCC(CO[C@@H]1O[C@H](CO)[C@H](O)[C@H](O)[C@H]1O)OC(=O)CCCCCCC/C=C\C/C=C\CCCCC,186,plaque count,50 µg/mL,90%
CN1C(=O)NC(=O)N([C@H]2C[C@H](O)[C@@H](CO)O2)C1(C)C,35D,plaque count,50 µM,40%
NC(=Nc1ccc(Cc2ccc(N=C(N)c3ccccc3)cc2)cc1)c1ccccc1,,plaque count,10 µM,>90%
CCCCCCCCCCCC(=O)OCC(CO[C@@H]1O[C@H](CO)[C@H](O)[C@H](O)[C@H]1O)OC(=O)CCCCCCCCCCC,186,plaque count,50 µg/mL,50%
Nc1ccn([C@H]2O[C@@H](CO)[C@H](O)[C@H]2F)c(=O)n1,G,virus yield,0.5 µM,11%
O=c1[nH]c(=O)n([C@H]2C[C@H](O)[C@@H](CO)O2)cc1CCCl,K979,cytopathic effect,30 µg/mL,≥25%
O=C1C2=C(C(=O)c3ccccc31)C1Oc3cc4c(cc3C1CO2)OCCO4,G,plaque count,0.4 µg/mL,90%
Nc1nc(=O)n([C@@H]2O[C@H](CO)[C@@H](O)[C@@H]2F)cc1I,K979,cytopathic effect,0.1 µg/mL,≥25%
Nc1nc(=O)n([C@@H]2O[C@H](CO)[C@@H](O)[C@@H]2F)cc1I,G,virus yield,0.05 µM,59%
Nc1nc2c(ncn2COC(CO)CO)c(=O)[nH]1,K979,cytopathic effect,0.3 µg/mL,≥25%
O=c1ccn(N2C[C@H](CO)[C@H]2CO)c(=O)[nH]1,,plaque count,10 µg/mL,0%
Cc1cn([C@@H]2O[C@H](CO)[C@@H](O)[C@@H]2F)c(=O)[nH]c1=O,G,virus yield,0.1 µM,51%

"inactive" is the filed call at that dose; no cut-off is given. Blank or dashed fields: not listed here. Percent inhibition refers to the dose given; in toxicity tests it is the harm to the cells.